Source: paper PMC3426641 (Biochemistry, 2012)

Amino acid sequences for entries named in this document (tags omitted). A change or cut given only in a name is not applied to a line headed by its entry.
UniProt P9WFK7: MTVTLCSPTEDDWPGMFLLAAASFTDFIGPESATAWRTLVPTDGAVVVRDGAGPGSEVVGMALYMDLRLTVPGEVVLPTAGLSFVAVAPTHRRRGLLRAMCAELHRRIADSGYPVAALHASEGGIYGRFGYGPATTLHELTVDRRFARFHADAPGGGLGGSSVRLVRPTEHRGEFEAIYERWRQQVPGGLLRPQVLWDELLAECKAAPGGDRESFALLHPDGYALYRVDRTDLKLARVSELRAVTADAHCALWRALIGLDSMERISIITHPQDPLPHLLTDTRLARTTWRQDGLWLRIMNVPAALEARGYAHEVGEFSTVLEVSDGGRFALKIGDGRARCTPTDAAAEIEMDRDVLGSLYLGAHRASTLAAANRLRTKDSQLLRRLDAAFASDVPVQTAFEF

Legend:
kanamycin A = experiment: purified protein, by the assay type; settings: pH 8.0; 25.0 °C
Eis_Mtb = Eis_Mtb (Mycobacterium tuberculosis, UniProt P9WFK7); settings: read-out: Kd,AG(E•AcCoA)

Row | Substance | Km (kanamycin A) [µM] | kcat (kanamycin A) [s⁻¹] | Kd (Eis_Mtb) [µM]
1 | Eis_Mtb (Mycobacterium tuberculosis H37Rv) | 490 ± 140 | 0.12 | –
2 | kanamycin A | – | – | 350 ± 150
